Experimental data: US7582618B2 (priority 2002, dated 2009)

The chains behind the UniProt entries cited, without tags or fusion partners. Residues count along the entry.
UniProt P19711, 3270-3988 limits assumed: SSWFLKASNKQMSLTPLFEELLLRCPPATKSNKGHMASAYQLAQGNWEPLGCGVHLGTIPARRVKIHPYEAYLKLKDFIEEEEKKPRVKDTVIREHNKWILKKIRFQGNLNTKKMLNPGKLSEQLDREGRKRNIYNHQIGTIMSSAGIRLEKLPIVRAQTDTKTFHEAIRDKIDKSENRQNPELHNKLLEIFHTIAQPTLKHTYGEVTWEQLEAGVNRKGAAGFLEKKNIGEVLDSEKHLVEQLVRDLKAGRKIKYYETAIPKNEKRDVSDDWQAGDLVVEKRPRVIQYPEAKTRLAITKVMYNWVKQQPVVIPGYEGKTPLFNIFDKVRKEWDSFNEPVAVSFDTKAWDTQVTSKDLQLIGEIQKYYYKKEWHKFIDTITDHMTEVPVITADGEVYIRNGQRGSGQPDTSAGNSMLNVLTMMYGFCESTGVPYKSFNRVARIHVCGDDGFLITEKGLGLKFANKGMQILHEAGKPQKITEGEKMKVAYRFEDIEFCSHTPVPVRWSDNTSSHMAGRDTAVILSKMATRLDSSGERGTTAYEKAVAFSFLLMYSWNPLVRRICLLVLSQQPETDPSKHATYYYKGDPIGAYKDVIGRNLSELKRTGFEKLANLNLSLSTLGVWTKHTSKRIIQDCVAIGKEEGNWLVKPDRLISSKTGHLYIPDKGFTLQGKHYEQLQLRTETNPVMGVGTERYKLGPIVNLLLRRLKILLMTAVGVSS

What was measured:
[1] = biological target: BVDV NS5B RNA-dependent RNA polymerase (Bovine viral diarrhea virus, UniProt P19711); assay: RNA synthesis by purified polymerase on synthetic RNA templates
[2] = test system: Yellow Fever Virus 17D in BHK cells; assay: microbe, parasite or virus in culture; format: cell-based; details: read-out: Antiviral Efficacy EC50
[3] = test system: WNV; assay: microbe, parasite or virus in culture; format: cell-based; details: West Nile virus, read-out: WNV (Table 8b)

Compound | IC50 [1] [µM] | Ki [1] [µM] | EC50 [2] [µM] | EC50 [3] [µM]
C[C@@]1(O)[C@H](O)[C@@H](COP(=O)(O)OP(=O)(O)OP(=O)(O)O)O[C@H]1n1ccc(N)nc1=O [mCyd-TP, 2′-C-methyl-cytidine-5′-triphosphate] | 0.74 | 0.16 |  | 
CC1(O)C(O)C(CO)OC1n1ccc(N)nc1=O (stereo not shown) [mCyd, 4-Amino-1-(3,4-dihydroxy-5-hydroxymethyl-3-methyl-tetrahydro-furan-2-yl)-1H-pyrimidine-2-one] |  |  | 60 to 80 | 80
